For at least one entry, the source does not settle the construct or the ends of the probe. At least one result comes from cells or an extract, where the contact may be indirect.
Columns and labels:
Assay in all cases: pull-down
[1] = target: TcaR (Staphylococcus aureus) (UniProt Q9F4G3); conditions: DNA affinity chromatography with MN8 lysate; MS identification; Example 2 states a 58 bp oligo; protein in an extract; protein details: MN8 lysate, identified by mass spectrometry; label: terminal biotin
[2] = target: DNA-binding protein II (HU) (Staphylococcus aureus) (UniProt Q99U17); conditions: DNA affinity chromatography; described as non-specific DNA binding protein; protein in an extract; protein details: MN8 lysate, identified by mass spectrometry; label: terminal biotin
[3] = system: Topoisomerase IV (Staphylococcus aureus); conditions: DNA affinity chromatography; described as non-specific; Example 2 states a 58 bp oligo; protein in an extract; protein details: MN8 lysate, identified by mass spectrometry; label: terminal biotin
[4] = target: SarA (Staphylococcus aureus) (UniProt Q2G2U9); conditions: DNA affinity chromatography with MN8 lysate; MS identification; protein in an extract; protein details: MN8 lysate, identified by mass spectrometry; label: terminal biotin

Measured: binding result

CTATGTTACAGGAAAATTAAGTTGCAATTACAAATATTTCCGTTTAATTATAA (double strand) [53-bp affinity chromatography probe]
binds: all assays above
